PubChem BioAssay AID1224833 | University of Georgia, 2016
Assay: 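Human genes whose knock-down alters rotavirus replication in monkey cells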 (primary screen). Cells: monkey MA104 kidney cells. Knock-down reagent: siRNA pool against human genes, 50 nM. Time to read-out: 48 h knock-down before infection; read 24 h after infection. Conditions: infection with rotavirus strain RV3 two days after transfection; infectious dose for this stage not given. Detection: 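Rotavirus antigen per well by fluorescent immunoassay, normalised to non-targeting control wells on each plate and given as a standard z-score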. Direction: z-score vs non-targeting control: higher = more rotavirus replication than with non-targeting control. Active means: In these data the active calls have z-score vs non-targeting control at about -1 or lower, or at about 1 or higher. Calls: active = z-score beyond 1 either way; inactive = z-score within 1 of zero.
In all, the deposit lists about 12,000 reagents; this is a random part of them. About 5,600 of them (46%) were called active. 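Active calls cover z-scores past 1 in both directions, so they include lowered as well as raised rotavirus replication.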

C1orf115 (chromosome 1 open reading frame 115): z-score vs non-targeting control = -1.83; Outcome = active
SELENOW (selenoprotein W): z-score vs non-targeting control = 0.287; Outcome = inactive
DNAJC3 (DnaJ heat shock protein family (Hsp40) member C3): z-score vs non-targeting control = -0.298; Outcome = inactive
IL7R (interleukin 7 receptor): z-score vs non-targeting control = -0.986; Outcome = inactive
NLRP6 (NLR family pyrin domain containing 6): z-score vs non-targeting control = 2.79; Outcome = active
ZNF608 (zinc finger protein 608): z-score vs non-targeting control = -1.48; Outcome = active
DRC3 (dynein regulatory complex subunit 3): z-score vs non-targeting control = -0.644; Outcome = inactive
CAP2 (cyclase associated actin cytoskeleton regulatory protein 2): z-score vs non-targeting control = 0.423; Outcome = inactive
CGB5 (chorionic gonadotropin subunit beta 5): z-score vs non-targeting control = -2.08; Outcome = active
CALB1 (calbindin 1): z-score vs non-targeting control = -2.44; Outcome = active
ETV1 (ETS variant transcription factor 1): z-score vs non-targeting control = -0.773; Outcome = inactive
CCDC15 (coiled-coil domain containing 15): z-score vs non-targeting control = -1.53; Outcome = active
NR1D1 (nuclear receptor subfamily 1 group D member 1): z-score vs non-targeting control = 0.791; Outcome = inactive
ZNF672 (zinc finger protein 672): z-score vs non-targeting control = -1.15; Outcome = active
CEP68 (centrosomal protein 68): z-score vs non-targeting control = -1.86; Outcome = active
OR51T1 (olfactory receptor family 51 subfamily T member 1): z-score vs non-targeting control = -4.01; Outcome = active
NTMT1 (N-terminal Xaa-Pro-Lys N-methyltransferase 1): z-score vs non-targeting control = -0.663; Outcome = inactive
ZMAT2 (zinc finger matrin-type 2): z-score vs non-targeting control = -1.1; Outcome = active
MST1 (macrophage stimulating 1): z-score vs non-targeting control = 0.657; Outcome = inactive
C8B (complement C8 beta chain): z-score vs non-targeting control = 1.16; Outcome = active
SLC25A26: z-score vs non-targeting control = -0.502; Outcome = inactive
UTS2 (urotensin 2): z-score vs non-targeting control = -1.08; Outcome = active
ZNF417 (zinc finger protein 417): z-score vs non-targeting control = 1.16; Outcome = active
CNST (consortin, connexin sorting protein): z-score vs non-targeting control = 0.458; Outcome = inactive
CYLC2 (cylicin 2): z-score vs non-targeting control = 0.521; Outcome = inactive
ZBTB35 (zinc finger and BTB domain containing 35): z-score vs non-targeting control = -0.223; Outcome = inactive
TSPAN4 (tetraspanin 4): z-score vs non-targeting control = -0.994; Outcome = inactive
MCCC1 (methylcrotonyl-CoA carboxylase subunit 1): z-score vs non-targeting control = -1.85; Outcome = active
ZFYVE26 (zinc finger FYVE-type containing 26): z-score vs non-targeting control = 0.89; Outcome = inactive
CRTC3 (CREB regulated transcription coactivator 3): z-score vs non-targeting control = -2.14; Outcome = active
SLC22A8: z-score vs non-targeting control = -1.27; Outcome = active
HPDL (4-hydroxyphenylpyruvate dioxygenase like): z-score vs non-targeting control = 1.83; Outcome = active
CFDP1 (chromatin remodeling protein CFDP1): z-score vs non-targeting control = -0.211; Outcome = inactive
SASS6 (SAS-6 centriolar assembly protein): z-score vs non-targeting control = 0.663; Outcome = inactive
ANP32B (acidic nuclear phosphoprotein 32 family member B): z-score vs non-targeting control = 0.291; Outcome = inactive
GSDMA (gasdermin A): z-score vs non-targeting control = -1.89; Outcome = active
FPR1 (formyl peptide receptor 1): z-score vs non-targeting control = -1.32; Outcome = active
PPP5C (protein phosphatase 5 catalytic subunit): z-score vs non-targeting control = 3.76; Outcome = active
DRC12 (dynein regulatory complex subunit 12 homolog): z-score vs non-targeting control = -0.472; Outcome = inactive
NR4A3 (nuclear receptor subfamily 4 group A member 3): z-score vs non-targeting control = -1.16; Outcome = active
DPYSL4 (dihydropyrimidinase like 4): z-score vs non-targeting control = 0.526; Outcome = inactive
GAA (alpha glucosidase): z-score vs non-targeting control = 0.991; Outcome = inactive
ZNF423 (zinc finger protein 423): z-score vs non-targeting control = 0.531; Outcome = inactive
C11orf52 (chromosome 11 open reading frame 52): z-score vs non-targeting control = -1.84; Outcome = active
CMYA5 (cardiomyopathy associated 5): z-score vs non-targeting control = -0.183; Outcome = inactive
PEF1 (penta-EF-hand domain containing 1): z-score vs non-targeting control = -0.328; Outcome = inactive
NYX (nyctalopin): z-score vs non-targeting control = 0.0557; Outcome = inactive
